Results of unrelated studies side by side (data: NIAID ChemDB).

Common to all: enzyme or target tests

ICn: concentration for n% inhibition. Percent inhibition refers to the dose given; in toxicity tests it is the harm to the cells. a–b is a range or a potency band. An empty or dashed field is not shown. Lines come from different laboratories, so protocols vary.

| smiles | read-out | protein | organism | dose | result |
|---|---|---|---|---|---|
| Cc1ccc(C(=O)N(c2cc(-c3ccccc3)sc2C(=O)O)C(C)C)cc1F | IC50 | NS3 ATPase | Hepatitis C virus |  | <5 µM |
| O=C(NC(Cc1c[nH]c2ccc(O)cc12)C(=O)O)c1ccc2c(c1)nc(-c1ccc3cc(-c4ccccc4)cnc3c1)n2C1CCCCC1 | inhibition | NS5B polymerase | Hepatitis C virus | 100 µM | 100% |
| Cc1cc(NC(=O)C2(NC(=O)c3ccc4c(c3)nc(-c3ccoc3)n4C3CCCCC3)CCCC2)ccc1/C=C/C(=O)O | IC50 | NS5B polymerase | Hepatitis C virus |  | <0.5 µM |
| Nc1ccc(-c2ccc(Cl)cc2)c(-c2ccc3cc(-c4nc5cc(C(=O)O)ccc5n4C4CCCCC4)ccc3n2)c1 | inhibition | NS5B polymerase | Hepatitis C virus | 100 µM | 101% |
| CC[C@@H](C=O)NC(=O)[C@@H]1C[C@@H](OCc2ccccc2)CN1C(=O)[C@@H](NC(=O)c1ccccc1)C(C)C | Ki | NS3 protease | Hepatitis C virus |  | 1–100 µM |
| CNC(=O)c1c(-c2ccc(F)cc2)oc2cc(C3CCCN3S(C)(=O)=O)c(OC(C)C)cc12 | IC50 | Nonstructural protein 5B | Hepatitis C virus |  | ≤0.5 µM |
| COc1nc(Nc2ccc3cn[nH]c3c2)nc(N2CCCC2)n1 | inhibition | Nonstructural protein 5B | Hepatitis C virus | 10 µg/mL | 65% |
| O=C(NC1(C(=O)Nc2cc(C(=O)O)[nH]n2)CCCC1)c1ccc2c(c1)nc(-c1ccoc1)n2C1CCCCC1 | IC50 | NS5B polymerase | Hepatitis C virus |  | 0.5–5 µM |
| COc1nc(NCCCn2ccnc2)nc(Nc2ccc3cn[nH]c3c2)n1 | inhibition | DNA polymerase | Hepatitis B virus | 0.1 µg/mL | 41% |
| CCNc1cc2oc(-c3ccc(F)cc3)c(C(=O)NC)c2cc1OCCCBr | IC50 | Nonstructural protein 5B | Hepatitis C virus |  | ≤0.5 µM |
| C#CCn1c(C(=O)O)cc2cc(NC(=O)C3(NC(=O)c4ccc5c(c4)nc(-c4ccoc4)n5C4CCCCC4)CCCC3)ccc21 | IC50 | NS5B polymerase | Hepatitis C virus |  | <0.5 µM |
| NC(=O)CNC(=O)c1ccc(-c2ccc(Cl)cc2)c(-c2ccc3cc(-c4nc5cc(C(=O)O)ccc5n4C4CCCCC4)ccc3n2)c1 | inhibition | NS5B polymerase | Hepatitis C virus | 33 µM | 100% |
| CC[C@@H](C=O)NC(=O)[C@@H]1C[C@@H](OCc2ccccc2)CN1C(=O)[C@@H](NC(=O)Cc1csc(N)n1)C(C)C | Ki | NS3 protease | Hepatitis C virus |  | 1–100 µM |
| O=C(NC1(C(=O)Nc2ccc3[nH]c(C(=O)O)cc(=O)c3c2)CCCC1)c1ccc2c(c1)nc(-c1ccoc1)n2C1CCCCC1 | IC50 | NS5B polymerase | Hepatitis C virus |  | <0.5 µM |
| CC(C)CC(=O)N(C)c1cc(-c2ccccc2)sc1C(=O)O | IC50 | NS3 ATPase | Hepatitis C virus |  | <5 µM |
| COc1nc(Nc2ccc3[nH]ncc3c2)nc(N2CCC(O)CC2)n1 | inhibition | Nonstructural protein 5B | Hepatitis C virus | 1 µg/mL | 12% |
| Cc1ccc(C(=O)N(C)c2cc(-c3cccc(O)c3)sc2C(=O)O)cc1 | IC50 | NS3 ATPase | Hepatitis C virus |  | <5 µM |
| COc1nc(Nc2ccc3cn[nH]c3c2)nc(N2CCN(CCO)CC2)n1 | inhibition | DNA polymerase | Hepatitis B virus | 0.1 µg/mL | 20% |
| CC[C@@H](C=O)NC(=O)[C@@H]1C[C@@H](OCc2ccccc2)CN1C(=O)[C@@H](NC(=O)c1ccccc1OC)C(C)C | Ki | NS3 protease | Hepatitis C virus |  | >100 µM |
| O=C(O)c1ccc2c(c1)nc(-c1ccc3nc(-c4ccc(-c5ccccc5)cc4)ccc3c1)n2C1CCCCC1 | inhibition | NS5B polymerase | Hepatitis C virus | 100 µM | 92.52% |
| CC[C@@H](C=O)NC(=O)[C@@H]1C[C@@H](OCc2csc3ccc(Cl)cc23)CN1C(=O)[C@@H](NC(=O)[C@@H](NC(=O)c1cnccn1)C(C)C)C(C)C | Ki | NS3 protease | Hepatitis C virus |  | 1–100 µM |
| C=CCN(C(=O)Cc1ccc2ccccc2c1)c1cc(-c2ccccc2)sc1C(=O)O | IC50 | NS3 ATPase | Hepatitis C virus |  | >20 µM |
| Cn1cccc1-c1nc2cc(C(=O)NC3(C(=O)Nc4ccc(/C=C/C(=O)O)cc4)CCCC3)ccc2n1C1CCCCC1 | IC50 | NS5B polymerase | Hepatitis C virus |  | <0.5 µM |
| CNC(=O)c1c(-c2ccc(F)c(C)c2)oc2ccc(OC)cc12 | IC50 | Nonstructural protein 5B | Hepatitis C virus |  | ≤0.5 µM |
| Cc1nc(C(=O)O)sc1-c1ccc(NC(=O)C2(NC(=O)c3ccc4c(c3)nc(-c3ccoc3)n4C3CCCCC3)CCCC2)cc1 | IC50 | NS5B polymerase | Hepatitis C virus |  | 0.5–5 µM |
| CC(C)CC(=O)N(Cc1ccc(Cl)cc1)c1cc(-c2ccccc2)sc1C(=O)O | IC50 | NS3 ATPase | Hepatitis C virus |  | 5–20 µM |
| CC[C@@H](C=O)NC(=O)[C@@H]1C[C@@H](OCc2ccccc2)CN1C(=O)[C@@H](NC(=O)[C@H](Cc1ccc(O)cc1)NC(=O)c1cnccn1)C(C)C | Ki | NS3 protease | Hepatitis C virus |  | 1–100 µM |
| O=C(O)c1ccc2c(c1)nc(-c1ccc3cc(-c4ccccc4)cnc3c1)n2C1CCCCC1 | inhibition | NS5B polymerase | Hepatitis C virus | 33 µM | 94.87% |
| CC(NC(=O)c1ccc2c(c1)nc(-c1ccoc1)n2C1CCCCC1)C(=O)Nc1ccc(C(=O)O)cc1 | IC50 | NS5B polymerase | Hepatitis C virus |  | 0.5–5 µM |
| COc1nc(Nc2ccc3[nH]ncc3c2)nc(N2CCN(C)CC2)n1 | inhibition | DNA polymerase | Hepatitis B virus | 0.01 µg/mL | 32% |
| O=C(O)c1sc(-c2ccccc2)cc1N(C(=O)c1ccc(Cl)cc1Cl)C1CCCC1 | IC50 | NS3 ATPase | Hepatitis C virus |  | <5 µM |
| O=C(O)c1ccc2c(c1)nc(-c1ccc3nc(-c4cc5cccc(O)c5o4)ccc3c1)n2C1CCCCC1 | inhibition | NS5B polymerase | Hepatitis C virus | 100 µM | 91.45% |
| C[C@@H](NC(=O)c1ccc2c(c1)nc(-c1ccoc1)n2C1CCCCC1)C(=O)Nc1ccc(C2=CC(=O)OC2)cc1 | IC50 | NS5B polymerase | Hepatitis C virus |  | 0.5–5 µM |
| Cc1ccc2cc(-c3nc4cc(C(=O)NC(Cc5c[nH]c6ccc(O)cc56)C(=O)O)ccc4n3C3CCCCC3)ccc2n1 | inhibition | NS5B polymerase | Hepatitis C virus | 100 µM | 98.22% |
| CNC(=O)c1c(-c2ccc(F)cc2)oc2cc(N3CCC(O)C3)c(OC(C)C)cc12 | IC50 | Nonstructural protein 5B | Hepatitis C virus |  | ≤0.5 µM |
| CCOCCOc1ccc(-c2ccc(Cl)cc2)c(-c2ccc3cc(-c4nc5cc(C(=O)O)ccc5n4C4CCCCC4)ccc3n2)c1 | inhibition | NS5B polymerase | Hepatitis C virus | 100 µM | 101% |
| CC(=O)c1ccc(-c2cc(N(C(=O)c3ccc(Cl)cc3Cl)C(C)C)c(C(=O)O)s2)cc1 | IC50 | NS3 ATPase | Hepatitis C virus |  | <5 µM |

5 of the rows above, restated:

smiles,read-out,protein,organism,dose,result
O=C(O)c1ccc2c(c1)nc(-c1ccc3nc(-c4ccc(-c5ccccc5)cc4)ccc3c1)n2C1CCCCC1,inhibition,NS5B polymerase,Hepatitis C virus,100 µM,92.52%
CC[C@@H](C=O)NC(=O)[C@@H]1C[C@@H](OCc2csc3ccc(Cl)cc23)CN1C(=O)[C@@H](NC(=O)[C@@H](NC(=O)c1cnccn1)C(C)C)C(C)C,Ki,NS3 protease,Hepatitis C virus,,1–100 µM
CC(C)CC(=O)N(Cc1ccc(Cl)cc1)c1cc(-c2ccccc2)sc1C(=O)O,IC50,NS3 ATPase,Hepatitis C virus,,5–20 µM
CNC(=O)c1c(-c2ccc(F)cc2)oc2cc(N3CCC(O)C3)c(OC(C)C)cc12,IC50,Nonstructural protein 5B,Hepatitis C virus,,≤0.5 µM
CNC(=O)c1c(-c2ccc(F)c(C)c2)oc2ccc(OC)cc12,IC50,Nonstructural protein 5B,Hepatitis C virus,,≤0.5 µM